Assay results reported in PMC12692169, “Identification of Novel TAT-I24-Related Peptides with Antiviral Activities” (International Journal of Molecular Sciences, 2025).
Residues, ends and D or L forms follow the SMILES beside them.

system: HEK293 cells; conditions: Selectivity index CC50/IC50; CC50 from CellTiter-Blue viability in HEK293, 72 h, from 20 µM; IC50 from baculovirus transduction

| Structure (SMILES) | SI [HEK293] |
| --- | --- |
| CC(C)C[C@H](NC(=O)[C@H](CS)NC(=O)[C@H](C)NC(=O)[C@H](Cc1ccc(O)cc1)NC(=O)[C@H](Cc1ccccc1)NC(=O)[C@H](C)NC(=O)[C@H](CC(C)C)NC(=O)[C@H](CCC(N)=O)NC(=O)[C@@H]1CCCN1C(=O)[C@@H]1CCCN1C(=O)[C@H](CCCNC(=N)N)NC(=O)[C@H](CCCNC(=N)N)NC(=O)[C@H](CCCNC(=N)N)NC(=O)[C@H](CCC(N)=O)NC(=O)[C@H](CCCNC(=N)N)NC(=O)[C@H](CCCNC(=N)N)NC(=O)[C@H](CCCCN)NC(=O)[C@H](CCCCN)NC(=O)[C@H](CCCNC(=N)N)NC(=O)CN)C(=O)N[C@@H](C)C(=O)N[C@@H](Cc1ccccc1)C(=O)N[C@@H](CS)C(=O)O [TAT-M14] (H-GRKKRRQRRRPPQLAFYACLAFC-OH; N-terminus and C-terminus assumed) | 766 |
| CC(C)C[C@H](NC(=O)[C@H](CS)NC(=O)[C@H](CCC(N)=O)NC(=O)[C@@H]1CCCN1C(=O)[C@@H]1CCCN1C(=O)[C@H](CCCNC(=N)N)NC(=O)[C@H](CCCNC(=N)N)NC(=O)[C@H](CCCNC(=N)N)NC(=O)[C@H](CCC(N)=O)NC(=O)[C@H](CCCNC(=N)N)NC(=O)[C@H](CCCNC(=N)N)NC(=O)[C@H](CCCCN)NC(=O)[C@H](CCCCN)NC(=O)[C@H](CCCNC(=N)N)NC(=O)CN)C(=O)N[C@@H](C)C(=O)N[C@H](C(=O)N[C@@H](Cc1ccc(O)cc1)C(=O)N[C@@H](CC(=O)O)C(=O)N[C@@H](CS)C(=O)N[C@@H](Cc1ccccc1)C(=O)N[C@H](C(=O)O)C(C)C)C(C)C [TAT-M17] (H-GRKKRRQRRRPPQCLAVYDCFV-OH; N-terminus and C-terminus assumed) | 792 |
| CC(C)C[C@H](NC(=O)[C@H](CS)NC(=O)[C@H](CCC(N)=O)NC(=O)[C@@H]1CCCN1C(=O)[C@@H]1CCCN1C(=O)[C@H](CCCNC(=N)N)NC(=O)[C@H](CCCNC(=N)N)NC(=O)[C@H](CCCNC(=N)N)NC(=O)[C@H](CCC(N)=O)NC(=O)[C@H](CCCNC(=N)N)NC(=O)[C@H](CCCNC(=N)N)NC(=O)[C@H](CCCCN)NC(=O)[C@H](CCCCN)NC(=O)[C@H](CCCNC(=N)N)NC(=O)CN)C(=O)N[C@@H](C)C(=O)N[C@H](C(=O)N[C@@H](Cc1c[nH]cn1)C(=O)N[C@@H](CC(=O)O)C(=O)N[C@@H](CS)C(=O)N[C@@H](Cc1ccccc1)C(=O)N[C@H](C(=O)O)C(C)C)C(C)C [TAT-M22] (H-GRKKRRQRRRPPQCLAVHDCFV-OH; N-terminus and C-terminus assumed) | 138 |
| CC(C)C[C@H](NC(=O)[C@H](Cc1ccccc1)NC(=O)[C@H](CS)NC(=O)[C@H](Cc1ccccc1)NC(=O)[C@@H]1CCCN1C(=O)[C@H](CO)NC(=O)[C@H](CCC(N)=O)NC(=O)[C@@H]1CCCN1C(=O)[C@@H]1CCCN1C(=O)[C@H](CCCNC(=N)N)NC(=O)[C@H](CCCNC(=N)N)NC(=O)[C@H](CCCNC(=N)N)NC(=O)[C@H](CCC(N)=O)NC(=O)[C@H](CCCNC(=N)N)NC(=O)[C@H](CCCNC(=N)N)NC(=O)[C@H](CCCCN)NC(=O)[C@H](CCCCN)NC(=O)[C@H](CCCNC(=N)N)NC(=O)CN)C(=O)N[C@@H](C)C(=O)N[C@@H](Cc1ccccc1)C(=O)N[C@@H](CS)C(=O)N[C@@H](Cc1ccccc1)C(=O)O [TAT-T7] (H-GRKKRRQRRRPPQSPFCFLAFCF-OH; N-terminus and C-terminus assumed) | 1299 |
